As a reminder, the inhibition is the relative decrease from the control value, in per cent.

The list shows a part of the results, in another mix than the full data. Calls of active or inactive are those of the source. Cut-off read from the data, not from the text of the source: active = inhibition above about 30%; inactive = the rest.

This test in a line: GDH-TPI coupling enzyme inhibitors, primary screen, artefact control for M. tuberculosis FBA inhibitor project, biochemical, absorbance, full deck (AID 588335).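 Note: 0% = DMSO wells and 100% = wells lacking the enzyme.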 To be noted: GDH-TPI coupled enzyme counterscreen, NADH absorbance; at 4.8 µM; hits give high values. On the technique in general: A counterscreen serves to expose hits that act by an unwanted route or on another target.
For the molecule `Nc1ccc([As](=O)(O)c2ccc(N)cc2)cc1`, the inhibition is inactive: 21%.
Under `CCc1nc2c(n1)c1c(non1O)c1c2no[n+]1[O-]` stands inactive: 17.2%; under `O=[N+]([O-])c1cc([N+](=O)[O-])c(CCNc2ccccc2)c([N+](=O)[O-])c1`, inactive: -0.32%.
In the case of `Cc1ccc(NP(=O)(Oc2ccccc2)Oc2ccccc2)nc1`, the inhibition was inactive: -0.62%.
`O=[N+]([O-])c1cccc2n[nH]nc12`: the inhibition is inactive: 13.3%.
Under `CC(=O)N1C2C3N(C(C)=O)C1C1N(C(C)=O)C(C(N1C(C)=O)N3C(C)=O)N2C(C)=O` stands inactive: 3.22%; under `COc1ccc(C2=NCC(CBr)S2)cc1` (stereo not given), inactive: -4.42%; under `O=C(NC(Sc1ccncn1)C(Cl)(Cl)Cl)c1ccccc1` (stereo not given), inactive: -7.41%.
Under `Oc1ccccc1CNc1ccccn1` stands inactive: 9.43%.
Under `Nc1cc(N)c2nonc2c1[N+](=O)[O-]` stands inactive: 11.6%; under `CC(C)CC(=O)NC(Sc1ccc(Cl)cc1)C(Cl)(Cl)Cl` (stereo not given), inactive: 3.27%; under `CN1CCCC(OC(=O)C(c2ccccc2)c2ccccc2)C1` (stereo not given), inactive: 1.24%.
In the case of `Clc1ccc(Cl)c(NC2=NCC(CBr)S2)c1` (stereo not given), the inhibition is inactive: -6.09%.
The figure for `Cc1ccc(OP(=O)(Nc2nccs2)Oc2ccc(C)cc2)cc1` is inactive: -3.45%; for `COc1ccccc1OP(=O)(Nc1ccc(C)cn1)Oc1ccccc1OC` it is inactive: 3.77%.
For the molecule `Cc1ccc(N/C(=N/P(=O)(N2CCOCC2)N2CCOCC2)N2CCOCC2)cc1`, the inhibition is inactive: 6.01%.
Under `CN(C(=O)Cc1ccc(Cl)c(Cl)c1)[C@H]1CCCC[C@H]1N1CCCC1` stands inactive: -6.74%.
Under `NC(=O)c1cc([N+](=O)[O-])cc([N+](=O)[O-])c1N` stands inactive: 9.9%.
The figure for `Nc1cccc2ccc([As](=O)(O)O)cc12` is inactive: 1.9%.
In the case of `CCN(N=Nc1nonc1N)c1nonc1N`, the inhibition is inactive: 16.2%.
With `Cc1ccc(NP(=O)(Oc2ccccc2F)Oc2ccccc2F)nc1`, the inhibition is inactive: 0.8%.
Consider `CN(C(=O)Cc1ccc(Cl)c(Cl)c1)[C@H]1CCCC[C@@H]1N1CCCC1`, for which the inhibition is inactive: 10.1%.
Under `Cc1cc(SC(NC(=O)c2ccc(F)cc2)C(Cl)(Cl)Cl)ncn1` (stereo not given) stands inactive: -6.93%; under `CCOP(=O)(Nc1ccccc1)OCC`, inactive: -0.64%.
The figure for `O=P(Nc1nc2ccc(Cl)cc2s1)(c1ccccc1)c1ccccc1` is inactive: -8.03%; for `CN(C)P(=O)(N(C)C)n1c(Nc2ccccc2)nnc1-c1ccccc1` it is inactive: 0.88%; for `CCCC1OP(N)(=O)OCC1CC` (stereo not given) it is inactive: 7.02%.
The figure for `CC(=O)Nc1ccc([As](=O)(O)O)cc1` is inactive: 5.26%.
In the case of `O=C(O)c1ccccc1[As](=O)(O)O`, the inhibition is inactive: 0.43%.
The figure for `O=c1c2cc([N+](=O)[O-])ccc2[nH]c2c([N+](=O)[O-])cc([N+](=O)[O-])cc12` is inactive: 12.8%; for `CN(C)C(=O)Oc1noc2ccccc12` it is inactive: -13.1%.
On to `CC(NC(=O)COC(=O)C(O)(c1ccccc1)c1ccccc1)c1ccccc1` (stereo not given), for which the inhibition was inactive: 8.63%.
For `Cc1ccccc1OP(=O)(Nc1ccccn1)Oc1ccccc1C`, the inhibition was inactive: 5.37%.
On to `CCC(=O)N1C2C3N(C(=O)CC)C1C1N(C(=O)CC)C(C(N1C(=O)CC)N3C(=O)CC)N2C(=O)CC`, for which the inhibition was inactive: -3.81%.
Turning to `O=C(OC1CN2CCC1CC2)c1ccccc1` (stereo not given), the inhibition is inactive: -10%.
With `Cc1ccc(OP(=O)(Nc2ccccn2)Oc2ccc(C)cc2)cc1`, the inhibition was inactive: -4.97%.
Under `CC(=O)NC(SC(=S)N(CC(C)C)CC(C)C)C(Cl)(Cl)Cl` (stereo not given) stands inactive: 1.84%; under `COC(=O)c1cc2c(s1)N=C(c1ccccc1)N(C)P2(=O)N1CCOCC1` (stereo not given), inactive: 4.38%.
Under `O=P1(N(CCCl)CCCl)OCCC2CCCCN21` (stereo not given) stands inactive: 4.41%; under `Cc1ccc(NP(=O)(Oc2cccc(C)c2)Oc2cccc(C)c2)nc1`, inactive: -3.83%.
Under `c1ccc(-c2nn[nH]n2)c(-c2nn[nH]n2)c1` stands inactive: 3.79%; under `CCNC(=S)/N=C(\N)N[N+](=O)[O-]`, inactive: -0.31%; under `O=C(NC1CCS(=O)(=O)C1)NP(=S)(Oc1ccccc1)Oc1ccccc1` (stereo not given), inactive: -6.73%.
Take `CC(=O)Nc1ccc(Oc2c([N+](=O)[O-])cc([N+](=O)[O-])cc2[N+](=O)[O-])cc1`: the inhibition is inactive: 12.3%.
Under `CC(=O)Nc1ccc([As](=O)(O)O)c(O)c1` stands inactive: 7.41%; under `C[C@H]1OP(=O)(Oc2ccccc2)C[C@@H]2O[C@@H]21` (stereo not given in full), inactive: -4.09%; under `C[C@@H]1C=CCP(=O)(Oc2ccccc2)O1` (stereo not given in full), inactive: 6.81%.
With `Cc1ccccc1CN(C)C(=O)COC(=O)C(O)(c1ccccc1)c1ccccc1`, the inhibition is inactive: 13.7%.
Take `COC(=O)C1(C)COP(=O)(NCc2ccccc2)OC1` (stereo not given): the inhibition was inactive: 4.13%.
For `CC(=O)c1ccc(N2CC2c2ccncc2)cc1` (stereo not given), the inhibition was inactive: 21.9%.
As to `N#C/C(=C\c1ccc(N(CCBr)CCBr)cc1)C(N)=O`, the inhibition was inactive: 12.4%.
As for `CC(C)(C)C(=O)NC(Sc1ccccc1)C(Cl)(Cl)Cl` (stereo not given), the inhibition is inactive: -5.18%.
Under `CCc1cc(O)c([N+](=O)[O-])c(C)c1[N+](=O)[O-]` stands inactive: 7.66%; under `CCOc1ccc(C2=NCC(CBr)S2)cc1` (stereo not given), inactive: -3.21%; under `O=P1(Nc2nc3ccc(Cl)cc3s2)COc2ccccc2O1` (stereo not given), inactive: -8.9%.
Under `c1nnnn1CCn1cnnn1` stands inactive: 1.23%.
With `CC(C)C(=O)NC(Sc1ccccc1)C(Cl)(Cl)Cl` (stereo not given), the inhibition was inactive: 9.89%.
Take `O=P(Nc1nccs1)(c1ccccc1)c1ccccc1`: the inhibition was inactive: 2.52%.
Under `O=C(OC1CN2CCC1CC2)c1cccc(Cl)c1` (stereo not given) stands inactive: 2.74%; under `C(Cc1nn[nH]n1)Cc1nn[nH]n1`, inactive: 5.47%.
As for `Nc1ccc([As](=O)(O)c2ccc([N+](=O)[O-])cc2)cc1`, the inhibition is inactive: 2.53%.
With `O=[As](O)(c1ccccc1)c1ccc(O)cc1`, the inhibition was inactive: 13.9%.
The figure for `O=[N+]([O-])c1ccc(O)c(/C=N/Nc2ccc([N+](=O)[O-])cc2[N+](=O)[O-])c1` is inactive: 1.52%; for `O=[N+]([O-])c1ncn(CCn2cnc([N+](=O)[O-])n2)n1` it is inactive: 3.59%; for `CC(=O)NC(SC(=S)N(C)C)C(Cl)(Cl)Cl` (stereo not given) it is inactive: 0.78%.
Under `C[C@H]1OP(=O)(Oc2ccccc2)[C@H](O)[C@H](O)[C@H]1N=[N+]=[N-]` (stereo not given in full) stands inactive: 1.36%; under `O=P(Nc1nc2ccccc2s1)(c1ccccc1)c1ccccc1`, inactive: 0%; under `O=P(Nc1ccccn1)(c1ccc(Br)cc1)c1ccc(Br)cc1`, inactive: 5.59%.
The figure for `CN(C)C1(CNC(=O)c2ccc(Cl)c(S(N)(=O)=O)c2)CCCCC1` is inactive: -8.89%.
For `COc1ccc(N)c([N+](=O)[O-])c1[N+](=O)[O-]`, the inhibition was inactive: 3.88%.

Values taken from PubChem BioAssay AID588335 (The Scripps Research Institute Molecular Screening Center, 2011).
